Results of unrelated studies side by side (data: NIAID ChemDB).

All rows: tests in culture; organism: HIV-1; method: p24; read-out: fold resistance

Blank or dashed fields: not listed here. Neighbouring rows are from separate reports. Fold resistance: result on the changed form divided by that on wild type.

smiles,strain or isolate,cells,changes,value
C[C@H](Cn1cnc2c(N)ncnc21)OCP(=O)(O)O,A17,MT-2,RT-K103N Y181C,0.235
CC(C)c1nc(CN(C)C(=O)N[C@H](C(=O)N[C@@H](Cc2ccccc2)C[C@H](O)[C@H](Cc2ccccc2)NC(=O)OCc2cncs2)C(C)C)cs1,NL4-3,MT-4,PR-N88D,0.2
Nc1ccn([C@H]2CC[C@@H](CO)O2)c(=O)n1,-,PBMC,RT-L74V,3.83
CC(C)=CCN1Cc2cc(Cl)cc3[nH]c(=S)n(c23)C[C@@H]1C,IIIB,CEM,RT-V106A,25
Cc1ccnc2c1NC(=O)c1cccnc1N2C1CC1,A2(RT-L74V G190E),H9,RT-L74V G190E,>111
O=c1[nH]cnc2c1ncn2[C@H]1CC[C@@H](CO)O1,HXB2D (RT-K65R),MT-4,RT-K65R,3.16
CC(C)CN(C[C@@H](O)[C@H](Cc1ccccc1)NC(=O)O[C@H]1CCOC1)S(=O)(=O)c1ccc(N)cc1,Clinical isolate,PBMC,PR-L10I K43T M46L I54L L63P A71T V82A L90M Q92K,26.8
O=c1[nH]cnc2c1ncn2[C@@H]1O[C@H](CO)C[C@@H]1F,RT P119S V179D L214F,MT-2,RT-P119S V179D L214F,2.6
Cc1cn([C@H]2C[C@H](N=[N+]=[N-])[C@@H](CO)O2)c(=O)[nH]c1=O,126 3TC (RT-M184V),MT-4,RT-M184V,0.5
Nc1ncnc2c1ncn2CCOCP(=O)(O)O,T215Y(RT-T215Y),MT-2,RT-T215Y,1.8
Cc1cn([C@H]2C[C@H](N=[N+]=[N-])[C@@H](CO)O2)c(=O)[nH]c1=O,XM-ABC-resistant,MT-4,RT-K65R L74V M184V Y115F,2
Cc1occc1C(=S)Nc1ccc(Cl)c(/C=N/OC(C)(C)C)c1,IIIB,CEM,RT-K103N,≥20
Cc1c(O)cccc1C(=O)N[C@@H](CSc1ccccc1)[C@H](O)CN1C[C@H]2CCCC[C@H]2C[C@H]1C(=O)NC(C)(C)C,Clinical isolate,PBMC,PR-L10I V11I T12E I15V L19I R41K M46L L63 A71T V82A L90M,3.91
Cc1cn([C@H]2C[C@H](N=[N+]=[N-])[C@@H](CO)O2)c(=O)[nH]c1=O,K65R(RT-K65R),MT-2,RT-K65R,1
O=c1[nH]cnc2c1ncn2[C@H]1CC[C@@H](CO)O1,XM-T69SSS,PBMC,RT-T69SSS L210W T215Y,1.3
Cc1cn([C@H]2C[C@H](N=[N+]=[N-])[C@@H](CO)O2)c(=O)[nH]c1=O,Recombinant,PBMC,RT-T215Y,0.01
COc1ccc2c(c1)N(C(=O)OC(C)C)[C@@H](CSC)C(=S)N2,IIIB,CEM,RT-K103N,3
O=c1[nH]cnc2c1ncn2[C@H]1CC[C@@H](CO)O1,M184V(RT-M184V),MT-2,RT-M184V,1.9
CC(C)(C)NC(=O)[C@@H]1C[C@@H]2CCCC[C@@H]2CN1C[C@@H](O)[C@H](Cc1ccccc1)NC(=O)[C@H](CC(N)=O)NC(=O)c1ccc2ccccc2n1,Clinical isolate,PBMC,PR-L10I V11I T12E I15V L19I R41K M46L L63 A71T V82A L90M,3.3
Cc1cn([C@H]2C[C@H](N=[N+]=[N-])[C@@H](CO)O2)c(=O)[nH]c1=O,NL4-3,MT-2,RT-V75T,1
Cc1cn([C@H]2C=C[C@@H](CO)O2)c(=O)[nH]c1=O,-,MT-2,RT-delta67 T69G,9.4
Cc1cn([C@@H]2O[C@H](CO[Si](C)(C)C(C)(C)C)C3(OS(=O)(=O)C=C3N)[C@H]2O[Si](C)(C)C(C)(C)C)c(=O)n(C)c1=O,IIIB,CEM,RT-M184I,1.04
COc1ccc(S(=O)(=O)N(CC(C)C)C[C@@H](O)[C@H](Cc2ccccc2)NC(=O)O[C@H]2CO[C@H]3OCC[C@H]32)cc1,Clinical isolate,PBMC,PR-L10I K14R R41K M46L I54V L63P A71V V82A L90M I93L,1
Cc1cn([C@H]2C[C@H](N=[N+]=[N-])[C@@H](CO)O2)c(=O)[nH]c1=O,LAI,MT-2,RT-D67N K70R T215Y K219Q K65R,1.3
CCc1cc(NCc2nc3c(Cl)ccc(Cl)c3o2)c(=O)[nH]c1C,NL4-3,MT-4,RT-A98G,8
C=C(C)OC(=O)N1c2cc(Cl)ccc2NC(=S)C1(C)C,B8 (RT K101I K103N Y181C G190A),H9,RT-K101I K103N Y181C G190A,>1670
O=c1[nH]cnc2c1ncn2[C@H]1CC[C@@H](CO)O1,-,PBMC,RT-L74V,2.5
Nc1ncnc2c1ncn2CCOCP(=O)(O)O,LAI,MT-2,RT-K65R,>4.3
O=c1[nH]cnc2c1ncn2[C@H]1CC[C@@H](CO)O1,Recombinant,PBMC,RT-M184V,2.5
CC(C)CN(C[C@@H](O)[C@H](Cc1ccccc1)NC(=O)[C@H](CC(N)=O)NC(=O)c1ccc2ccccc2n1)C(=O)NC(C)(C)C,NL4-3,MT-4,PR-L10R L63P V82T I84V,4
Nc1nc(NC2CC2)c2ncn([C@H]3C=C[C@@H](CO)C3)c2n1,-,MT-2,RT-K103N,1.8
CC(C)(C)NC(=O)[C@@H]1C[C@@H]2CCCC[C@@H]2CN1C[C@@H](O)[C@H](Cc1ccccc1)NC(=O)[C@H](CC(N)=O)NC(=O)c1ccc2ccccc2n1,NL4-3,MT-4,PR-L10R L63P V82T,1
Nc1nc(N)c2ncn([C@H]3CO[C@@H](CO)O3)c2n1,LAI,MT-2,RT-K65R,4.5
CCc1cc(NCc2nc3c(Cl)ccc(Cl)c3o2)c(=O)[nH]c1C,DLV-resistant IIIB (RT-L100I),MT-4,RT-L100I,36.4
Nc1ccn([C@@H]2CO[C@H](CO)S2)c(=O)n1,RF,C8166,RT-M41L,0.8

For reference, 4 entries again:

| smiles | strain or isolate | cells | changes | value |
|---|---|---|---|---|
| Cc1cn([C@H]2C[C@H](N=[N+]=[N-])[C@@H](CO)O2)c(=O)[nH]c1=O | Recombinant | PBMC | RT-T215Y | 0.01 |
| O=c1[nH]cnc2c1ncn2[C@H]1CC[C@@H](CO)O1 | HXB2D (RT-K65R) | MT-4 | RT-K65R | 3.16 |
| Cc1occc1C(=S)Nc1ccc(Cl)c(/C=N/OC(C)(C)C)c1 | IIIB | CEM | RT-K103N | ≥20 |
| CC(C)(C)NC(=O)[C@@H]1C[C@@H]2CCCC[C@@H]2CN1C[C@@H](O)[C@H](Cc1ccccc1)NC(=O)[C@H](CC(N)=O)NC(=O)c1ccc2ccccc2n1 | NL4-3 | MT-4 | PR-L10R L63P V82T | 1 |